Compound potency records, mixed from different reports. Data source: NIAID ChemDB in PubChem.

Shared fields: growth or infection tests; agent: Mycobacterium tuberculosis

Inhibition is in % at the dose shown (toxicity tests: loss of growth or viability). Neighbouring rows are from separate reports. MIC bound: limit read from a one-dose screen. MIC50, MIC90 and the like: level of inhibition, or share of isolates inhibited. Two numbers with a dash give a range or band. Blank or dashed fields: not listed here.

SMILES,strain or isolate,measure,dose,setting,read by,result
COc1ccc2oc(=S)n(-c3ccc(Cl)c(Cl)c3)c(=S)c2c1,My 331/88,MIC,,14 d,,16 µM
O=C1Oc2cc3c(c4cccc1c24)O[C@@H](c1ccccc1)C(c1ccccc1)[C@H]3c1ccc(Cl)cc1,H37Rv,inhibition,12.5 µg/mL,,BACTEC,0%
COc1cc(-c2nnc(SC)o2)cc(OC)c1OC,H37Rv,inhibition,6.25 µg/mL,,BACTEC,20%
CC(=O)Nc1ccc(/C=N/NC(N)=S)cc1Br,,MIC,,,,<6.25 µg/mL
CN(C)c1ccc2c(NCCCCCCNc3ccnc4cc(N(C)C)ccc34)ccnc2c1,H37Rv,inhibition,12.5 µg/mL,,BACTEC,81%
CC(=O)Nc1ccc(/C=N/NC(N)=S)cc1F,Erdman,MIC,,,,0.2 µg/mL
FC(F)(F)c1ccc(-n2c(=S)oc3ccc(Cl)cc3c2=S)cc1,My 331/88,MIC,,21 d,,4 µM
O=CNc1ccc(Cl)c(C(F)(F)F)c1,H37Rv,inhibition,12.5 µg/mL,,BACTEC,17%
COc1cccc2cc(-c3cn4ccccc4n3)c(=O)oc12,H37Rv,MIC,,,BACTEC,>6.25 µg/mL
O=C(CSc1nnc(-c2ccccc2)o1)c1ccc(F)cc1,H37Rv,inhibition,6.25 µg/mL,,BACTEC,58%
CC(C)NNC(=O)C(N)CCC(=O)O,H37Rv,inhibition,12.5 µg/mL,,BACTEC,-18%
CCOC(=O)C[C@H](NCCCCCCCCCN[C@@H](CC(=O)OCC)C1O[C@@H]2OC(C)(C)O[C@@H]2[C@H]1OCc1ccccc1)C1O[C@@H]2OC(C)(C)O[C@@H]2[C@H]1OCc1ccccc1,H37Rv,MIC,,,,25 µg/mL
COc1cc(C2=NN(C(=O)COc3ccc4ccccc4c3)C3CCCC23)c(C)cc1OCC(=O)O,H37Rv,inhibition,6.25 µg/mL,,,54%
CCOc1ccc(NC(=S)NNC(=O)COc2cnccn2)cc1,H37Rv,MIC,,,,92 µg/mL
CC1(C)OC(CO)[C@H]([C@@]23OC[C@H]4OC(C)(C)O[C@H]4[C@@H]2OC(C)(C)O3)O1,H37Rv,inhibition,6.25 µg/mL,,resazurin,4%
CN1N=C(c2ccncc2)OC1c1ccc(Cl)c(Cl)c1,6 PI,MIC,,,,>20 µg/mL
COC(=O)C(CO)NC(=O)C(NC(=O)OCc1ccccc1)C(C)O,H37Rv,inhibition,12.8 µg/mL,,BACTEC,32%
C[C@]1(COc2ccc(N3CCC(Oc4ccc(OC(F)(F)F)cc4)CC3)cc2)Cn2cc([N+](=O)[O-])nc2O1,H37Ra,MIC,,,,0.006 µg/mL
CN1N=C(c2ccncc2)OC1c1ccc(Cl)cc1Cl,6 PI,MIC,,,,>20 µg/mL
NNC(=O)c1ccncc1,Isolate UT3194 (katG S315T mutation),MIC,,,,19 µg/mL
CCOC(=O)CC(NCCCCNC(CC(=O)OCC)[C@H]1O[C@@H]2CC(C)(C)C[C@@H]2[C@H]2CC(C)(C)C[C@H]21)[C@H]1O[C@@H]2CC(C)(C)C[C@@H]2[C@H]2CC(C)(C)C[C@H]21,H37Rv,MIC,,,,>12.5 µg/mL
NC(=O)c1cnccn1,Isolate 11830,MIC,,,,100 µg/mL
CCn1c(-c2cc3cc(Br)ccc3oc2=O)cs/c1=N\N=C\c1ccc(Cl)cc1,H37Rv,inhibition,12.5 µg/mL,,,63%
CN1N=C(c2ccncc2)OC1c1cccc(C(F)(F)F)c1,6 PI,MIC,,,,>20 µg/mL
CC(C)Cn1c(-c2ccc(Br)cc2)cs/c1=N\NC(=O)COc1cnccn1,H37Rv,MIC,,,,18 µg/mL
CCOC(=O)c1ccc(-n2cnc(-c3ccc([N+](=O)[O-])cc3)c2)cc1,H37Rv,inhibition,6.25 µg/mL,,resazurin,-11%
CC(=O)NC[C@H]1CN(c2ccc(N3CCN(Cc4ccc([N+](=O)[O-])o4)CC3)c(F)c2)C(=O)O1,59 isolates,MIC50,,,,2 µg/mL
NC(=O)C(=CNC(=S)Nc1ccc(Cl)c(Cl)c1)C(N)=O,H37Rv,inhibition,6.25 µg/mL,,BACTEC,93%
O=C(COc1cnccn1)N/N=c1\scc(-c2ccc(O)cc2)n1-c1ccc(Cl)cc1,H37Rv,MIC,,,,24 µg/mL
CCOc1cc(/C=N/N=c2\scc(-c3cc4ccccc4oc3=O)n2C2CCCCC2)ccc1O,H37Rv,inhibition,12.5 µg/mL,,,98%
Cc1cn2c(C(=O)NCc3ccc(N4CCCN(c5ccc(S(F)(F)(F)(F)F)cc5)CC4)c(F)c3)c(C)nc2s1,H37Rv,MIC90,,,resazurin,<2 µM
Oc1ccccc1-c1nnc(SCC2(c3ccc(F)cc3)OCCO2)o1,H37Rv,inhibition,6.25 µg/mL,,BACTEC,33%
N#CCC(=O)N/N=C1\C(=O)N(c2cc(Cl)ccc2Cl)C(=O)C(=O)C1c1nc2ccccc2s1,H37Rv,inhibition,12.5 µg/mL,,BACTEC,7%
CCOC(=O)CC(NCCCCCCCCNC(CC(=O)OCC)[C@H]1O[C@@H]2CC(C)(C)C[C@@H]2[C@H]2CC(C)(C)C[C@H]21)[C@H]1O[C@@H]2CC(C)(C)C[C@@H]2[C@H]2CC(C)(C)C[C@H]21,H37Rv,MIC,,,,>25 µg/mL
CC(=O)NC[C@H]1CN(c2ccc(N3CCN(c4ccc([N+](=O)[O-])s4)CC3)c(F)c2)C(=O)O1,M-149,MIC,,,,0.25 µg/mL
CC1(C)C[C@H]2[C@@H](C1)[C@@H](C(CCO)NCCCCNC(CCO)[C@H]1O[C@@H]3CC(C)(C)C[C@@H]3[C@H]3CC(C)(C)C[C@H]31)O[C@@H]1CC(C)(C)C[C@H]21,H37Rv,MIC,,,,>25 µg/mL
CCOc1ccc(-n2c(-c3ccc(O)cc3)cs/c2=N\NC(=O)COc2cnccn2)cc1,H37Rv,MIC,,,,10.4 µg/mL
O=c1oc2ccccc2cc1-c1cs/c(=N\N=C\c2cc(Br)ccc2O)n1C1CCCCC1,H37Rv,inhibition,12.5 µg/mL,,,83%
CC1COc2c(N3CCN(C)CC3)c(F)cc3c(=O)c(C(=O)O)cn1c23,100 isolates,MIC90,,,,2 µg/mL
Cc1ccn2cc(-c3cc4cc(Cl)ccc4oc3=O)nc2c1,H37Rv,inhibition,6.25 µg/mL,,BACTEC,9%
Cc1cn2c(C(=O)NCc3ccc(N4CCS(=O)(=O)CC4)cc3)c(C)nc2s1,H37Rv,MIC90,,,resazurin,2–10 µM
COc1ccn(C)c(=O)c1C#N,H37Rv,inhibition,12.5 µg/mL,,BACTEC,7%
COc1ccc(OC)c(C2OC(c3ccncc3)=NN2C)c1,H37Rv,MIC,,,,>20 µg/mL
Cc1ccn2cc(-c3cc4cc(Br)ccc4oc3=O)nc2c1,H37Rv,inhibition,6.25 µg/mL,,BACTEC,3%
CC(C)CNP(=S)(NCC(C)C)c1ccccc1,H37Rv,MIC bound,,,BACTEC,>6.25 µg/mL
Cc1ccc2oc(=O)n(-c3ccc(C(F)(F)F)cc3)c(=S)c2c1,My 331/88,MIC,,14 d,,4 µM
COc1cc(-c2nnc(SCC(=O)c3ccc(Br)cc3)o2)cc(OC)c1OC,H37Rv,inhibition,6.25 µg/mL,,BACTEC,22%
COc1ccc(-c2cs/c(=N\NC(=O)COc3cnccn3)n2-c2ccc(Cl)cc2[N+](=O)[O-])cc1,H37Rv,MIC,,,,2.7 µg/mL
CC1(C)C[C@H]2[C@@H](C1)[C@@H](C(CCO)NCCCCCCCCCCCCNC(CCO)[C@H]1O[C@@H]3CC(C)(C)C[C@@H]3[C@H]3CC(C)(C)C[C@H]31)O[C@@H]1CC(C)(C)C[C@H]21,H37Rv,MIC,,,,25 µg/mL
CC(C)OC(=S)Nc1ccc(Cl)c(/C=N/OC(C)(C)C)c1,H37Rv,MIC bound,,,BACTEC,≤12.5 µg/mL
COc1cc(-c2nnc(SCc3ccccn3)o2)cc(OC)c1OC,H37Rv,inhibition,6.25 µg/mL,,BACTEC,39%
COc1ccc2oc(-c3cc4cc(OC)ccc4o3)cc2c1,H37Rv,MIC bound,,,BACTEC,>12.5 µg/mL
Cc1ccc2oc(=O)n(-c3ccccc3)c(=S)c2c1,My 331/88,MIC,,14 d,,1 µM
COC1=CC=C2[C@@H]3Cc4ccc(OC)c5c4[C@]2(CCN3CCCl)C1O5,H37Rv,inhibition,12.5 µg/mL,,BACTEC,11%
Cc1cn2c(C(=O)NCc3ccc(N4CCC(c5ccc(OC(F)(F)F)cc5)CC4)cc3)c(C)nc2s1,H37Rv,MIC90,,,resazurin,<2 µM
CN1N=C(c2ccncc2)OC1c1ccccc1,H37Rv,MIC,,,,>20 µg/mL
CCOC(=O)Cc1nc2ccc3c(c2[nH]c1=O)C(=O)c1ccccc1C3=O,H37Rv,MIC bound,,,BACTEC,>12.5 µg/mL
COc1ccc(C2(CSc3nnc(-c4ccc(O)cc4)o3)OCCO2)cc1OC,H37Rv,inhibition,6.25 µg/mL,,BACTEC,3%
CCc1nc2ccc(Cl)cn2c1C(=O)NCc1ccc(S(F)(F)(F)(F)F)cc1,H37Rv,MIC90,,,resazurin,<2 µM
COc1ccc(Nc2nc(NNC(=O)Cc3ccccc3)nc(NNC(=O)c3ccncc3)n2)cc1,H37Rv,inhibition,12.5 µg/mL,,BACTEC,29%
Cc1nc2ccc(F)cn2c1C(=O)NCc1ccc2c(c1)CCO2,H37Rv,MIC90,,,resazurin,<2 µM
COc1ccc2oc(=O)n(-c3ccc(F)cc3)c(=S)c2c1,My 331/88,MIC,,14 d,,16 µM
Nc1nc2ccc(CN(C=O)c3ccc(C(=O)N[C@@H](CCC(=O)O)C(=O)O)cc3)cc2c(=O)[nH]1,H37Rv,inhibition,12.5 µg/mL,,BACTEC,11%
CNC1CCCN(c2c(F)cc3c(=O)c(C(=O)O)cn(C4CC4)c3c2OC)C1,100 isolates,MIC50,,,,0.5 µg/mL
CCOC(=O)CC(NCCCCCCCCCCCCNC(CC(=O)OCC)[C@H]1O[C@@H]2CC(C)(C)C[C@@H]2[C@H]2CC(C)(C)C[C@H]21)[C@H]1O[C@@H]2CC(C)(C)C[C@@H]2[C@H]2CC(C)(C)C[C@H]21,H37Rv,MIC,,,,>25 µg/mL
O=c1oc2c(Br)cc(Br)cc2cc1-c1cn2ccccc2n1,H37Rv,MIC,,,BACTEC,>6.25 µg/mL
CCOC(=O)CC(NCCCCCCCCCCNC(CC(=O)OCC)[C@H]1O[C@@H]2CC(C)(C)C[C@@H]2[C@H]2CC(C)(C)C[C@H]21)[C@H]1O[C@@H]2CC(C)(C)C[C@@H]2[C@H]2CC(C)(C)C[C@H]21,H37Rv,MIC,,,,>25 µg/mL
COc1cc(-c2nnc(SCC(=O)c3ccc([N+](=O)[O-])cc3)o2)cc(OC)c1OC,H37Rv,inhibition,6.25 µg/mL,,BACTEC,33%
Cc1ccccc1-c1nc(/C=C2/C(=O)C=Cc3ccccc32)c(O)o1,H37Rv,inhibition,12.5 µg/mL,,BACTEC,10%
S=c1oc2ccc(Br)cc2c(=S)n1-c1ccc(Cl)cc1,My 331/88,MIC,,14 d,,1 µM
Cc1ccn2c(C(=O)NCc3ccc(N4CCC(c5ccc(OC(F)(F)F)cc5)CC4)cc3)c(C)nc2c1,H37Rv,MIC90,,,resazurin,<2 µM
O=S(=O)(O)c1ccc(-c2nnc(-c3ccccn3)nc2-c2ccc(S(=O)(=O)O)o2)o1,H37Rv,inhibition,6.25 µg/mL,,resazurin,42%
CC1(C)C[C@H]2[C@@H](C1)[C@@H]([C@H](CCO)NCCCCCCCCN[C@@H](CCO)[C@H]1O[C@@H]3CC(C)(C)C[C@@H]3[C@H]3CC(C)(C)C[C@H]31)O[C@@H]1CC(C)(C)C[C@H]21,H37Rv,MIC,,,,>25 µg/mL
Cc1ccn2c(C(=O)NCc3ccc(NCCOCCNC(=O)OC(C)(C)C)c(F)c3)c(C)nc2c1,H37Rv,MIC90,,,resazurin,2–10 µM
COc1ccc(-c2nnc(SCC3(c4ccc(Cl)cc4)OCCO3)o2)cc1,H37Rv,inhibition,6.25 µg/mL,,BACTEC,15%
Cc1cn2c(C(=O)NCc3ccc(N4CCSCC4)c(F)c3)c(C)nc2s1,H37Rv,MIC90,,,resazurin,<2 µM
Cc1ccc(-n2c(=S)oc3ccc(C)cc3c2=S)cc1,My 331/88,MIC,,14 d,,0.5 µM
CSC(=S)N/N=C(/C)Cc1ccccn1,PZA-R,MIC,,,,0.8 µg/mL
CC1COc2c(N3CCN(C)CC3)c(F)cc3c(=O)c(C(=O)O)cn1c23,H37Rv,MIC,,,,1.25 µg/mL
CC1(C)C[C@H]2[C@@H](C1)[C@@H](C(CCO)NCCCCCCCCNC(CCO)[C@H]1O[C@@H]3CC(C)(C)C[C@@H]3[C@H]3CC(C)(C)C[C@H]31)O[C@@H]1CC(C)(C)C[C@H]21,H37Rv,MIC,,,,>25 µg/mL
C=CCn1c(-c2cc3ccccc3oc2=O)cs/c1=N\N=C\c1ccc(Cl)cc1,H37Rv,inhibition,12.5 µg/mL,,,36%

Repeating the final 8 entries:

SMILES,strain or isolate,measure,dose,setting,read by,result
Cc1ccn2c(C(=O)NCc3ccc(NCCOCCNC(=O)OC(C)(C)C)c(F)c3)c(C)nc2c1,H37Rv,MIC90,,,resazurin,2–10 µM
COc1ccc(-c2nnc(SCC3(c4ccc(Cl)cc4)OCCO3)o2)cc1,H37Rv,inhibition,6.25 µg/mL,,BACTEC,15%
Cc1cn2c(C(=O)NCc3ccc(N4CCSCC4)c(F)c3)c(C)nc2s1,H37Rv,MIC90,,,resazurin,<2 µM
Cc1ccc(-n2c(=S)oc3ccc(C)cc3c2=S)cc1,My 331/88,MIC,,14 d,,0.5 µM
CSC(=S)N/N=C(/C)Cc1ccccn1,PZA-R,MIC,,,,0.8 µg/mL
CC1COc2c(N3CCN(C)CC3)c(F)cc3c(=O)c(C(=O)O)cn1c23,H37Rv,MIC,,,,1.25 µg/mL
CC1(C)C[C@H]2[C@@H](C1)[C@@H](C(CCO)NCCCCCCCCNC(CCO)[C@H]1O[C@@H]3CC(C)(C)C[C@@H]3[C@H]3CC(C)(C)C[C@H]31)O[C@@H]1CC(C)(C)C[C@H]21,H37Rv,MIC,,,,>25 µg/mL
C=CCn1c(-c2cc3ccccc3oc2=O)cs/c1=N\N=C\c1ccc(Cl)cc1,H37Rv,inhibition,12.5 µg/mL,,,36%